Results of unrelated studies side by side (data: NIAID ChemDB).

Shared fields: tests on isolated targets

Fold resistance: result on the changed form divided by that on wild type.

structure,strain or isolate,dose,protein,measure,agent,method,changes,value
Cc1cn([C@@H]2O[C@H](CO[Si](C)(C)C(C)(C)C)C3(OS(=O)(=O)C=C3N)[C@H]2O[Si](C)(C)C(C)(C)C)c(=O)n(C)c1=O,-,-,Reverse transcriptase,IC50,HIV,nucleotide incorporation / radiometric,RT-N137A,0.9 µM
O=C(CCN1C(=O)/C(=C/c2ccc3c(c2)OCO3)SC1=S)NNC(=O)c1ccccc1,-,-,Pantothenate synthetase,IC50,Mycobacterium tuberculosis,absorbance,-,5.86 µM
Cc1cn([C@@H]2O[C@H](CO[Si](C)(C)C(C)(C)C)[C@@]3(OS(=O)(=O)C=C3N)[C@H]2O[Si](C)(C)C(C)(C)C)c(=O)[nH]c1=O,-,-,Reverse transcriptase,fold resistance,HIV,nucleotide incorporation / radiometric,RT-N137H,0.69
Cc1cc(-c2nc(C(=O)O)c(O)c(=O)[nH]2)ccc1Br,-,-,HCV polymerase,IC50,Hepatitis C virus,-,-,<100 µM
Cc1noc(NS(=O)(=O)c2ccc(N)cc2)c1C,-,0.05 µM,DHPS,inhibition,Pneumocystis carinii,-,-,39.2%
COc1cc(CN(C)c2ccc3nc(N)nc(N)c3c2Cl)cc(OC)c1OC,-,-,Dihydrofolate reductase,IC50,Cryptosporidium parvum,-,-,0.78 µM
CCC(CC)Nc1cc(C(=O)O)ccc1N1C(=O)CCC1(CO)CCN,Subtype N2,-,Neuraminidase,IC50,Influenza A virus,-,-,41 µM
CC(C)c1cccc(C=C2SC(=O)N(CC(=O)N3CCN(c4ccccc4)CC3)C2=O)c1,-,-,Falcipain-2,IC50,Plasmodium falciparum,fluorescence,-,23.89 µM
CC(=O)c1cnccn1,RH,2000 µM,Uracil phosphoribosyltransferase,inhibition,Toxoplasma gondii,-,-,<10%
COc1cccc(S(=O)(=O)NN2C(=O)/C(=C\c3ccc(Cl)c(Cl)c3)SC2=S)c1,-,-,NS5B polymerase,IC50,Hepatitis C virus,-,-,≤30 µM
O=C(O)c1ccc(NC(=S)Nc2ccc(S(=O)(=O)Nc3ccccn3)cc2)cc1,-,-,DHPS,IC50,Pneumocystis carinii,-,-,5.9 µM
Cc1ccccc1C1NC(=S)N=C2C1C(=O)N=C1SC([N+](=O)[O-])=CN12,-,100 µM,CysK1,inhibition,Mycobacterium tuberculosis,absorbance,-,84.1%
CC(=O)N[C@@H](CC(C)C)C(=O)N[C@@H](CC(C)C)C(=O)N[C@H](C=O)CCCN=C(N)N,-,-,Aminopeptidase,IC50,Cryptosporidium parvum,-,-,>1000 µM
O=c1[nH]c(=O)n([C@@H]2O[C@H](CO)[C@@H](O)[C@@H]2O)cc1C=C(Br)Br,-,-,Thymidine kinase,Ki,Varicella zoster virus,-,-,4.05 µM
O=C(CCN1C(=O)/C(=C/c2ccc([N+](=O)[O-])cc2)SC1=S)NNC(=O)c1cccnc1,-,-,Pantothenate synthetase,IC50,Mycobacterium tuberculosis,absorbance,-,2.51 µM
C[C@H](N)C(=O)Nc1cccc(S(=O)(=O)NC(=O)Nc2cscc2-c2nc(C(=O)O)c(O)c(=O)[nH]2)c1,-,-,HCV polymerase,IC50,Hepatitis C virus,-,-,<25 µM
Cl.O=c1nccc[nH]1,RH,2000 µM,Uracil phosphoribosyltransferase,inhibition,Toxoplasma gondii,-,-,<10%
COc1cc(Cc2sc3nc(N)nc(N)c3c2C)c(Br)c(OC)c1OC,-,-,Dihydrofolate reductase,IC50,Cryptosporidium parvum,-,-,10 µM
O=c1[nH]c(=O)n([C@@H]2O[C@H](CO)[C@@H](O)[C@@H]2O)cc1/C=C/I,-,-,Thymidine kinase,Ki,Varicella zoster virus,-,-,0.28 µM
O=C(c1ccccc1Cl)N1C[C@H](CN2CCC(O)(CCCc3ccc(-c4nn[nH]n4)cc3)CC2)[C@@H](c2ccccc2)C1,-,-,CCR5,fold resistance,-,radiometric,CCR5-D276A,0.45
Nc1ccc(S(=O)(=O)Nc2cccc(NS(=O)(=O)c3ccc(N)cc3)c2)cc1,-,-,DHPS,IC50,Pneumocystis carinii,-,-,0.18 µM
O=c1[nH]c(=O)n([C@@H]2O[C@H](CO)[C@@H](O)[C@H]2O)cc1/C=C/Br,-,-,Thymidine kinase,Ki,Varicella zoster virus,-,-,4.48 µM
Nc1ccc(S(=O)(=O)Nc2nccs2)cc1,-,0.05 µM,DHPS,inhibition,Pneumocystis carinii,-,-,60.9%
N#Cc1ccc(C(=O)Nc2nnc(NC3CCCCCC3)s2)cc1,-,-,Polymerase,IC50,Human cytomegalovirus,-,-,<25 µM
CO[P@](=O)(c1cc(C)cc(/C=C/C#N)c1)c1c(C(N)=O)[nH]c2ccc(Cl)cc12,-,-,Reverse transcriptase,IC50,HIV,-,L1001,0.13 µM
O=C(CN1C(=O)SC(=Cc2ccc(Cl)cc2Cl)C1=O)N1CCN(c2ccccc2)CC1,-,-,Falcipain-2,IC50,Plasmodium falciparum,fluorescence,-,>50 µM
CC1CCC(C(=O)N(CC2CCN(C(=O)OCc3ccccc3)CC2)c2cc(-c3ccccc3)sc2C(=O)O)CC1,-,-,NS3 ATPase,IC50,Hepatitis C virus,-,-,<5 µM
NS(=O)(=O)c1ccc(CNc2nnc(NC(=O)c3cc4ccccc4s3)s2)cc1,-,-,Polymerase,IC50,Human cytomegalovirus,-,-,>25 µM
O=C(C1CCCCC1)N1C[C@H](CN2CCC(c3ccccc3)CC2)[C@@H](c2ccccc2)C1,-,-,CCR5,IC50,-,radiometric,-,0.023 µM
O=c1cc(Cl)[nH]c(=O)[nH]1,RH,-,Uracil phosphoribosyltransferase,IC50,Toxoplasma gondii,-,-,>2000 µM
O=C1N=C2C(C(=O)N=C3SC([N+](=O)[O-])=CN32)C(c2ccccc2)N1,-,100 µM,CysK1,inhibition,Mycobacterium tuberculosis,absorbance,-,15.9%
CC(C)C(N)B(O)O,-,-,Aminopeptidase,IC50,Cryptosporidium parvum,-,-,<0.001 µM
CC1CCC(C(=O)N(c2cc(-c3cccc([N+](=O)[O-])c3)sc2C(=O)O)C(C)C)CC1,-,-,NS3 ATPase,IC50,Hepatitis C virus,-,-,<5 µM
O=C1/C(=C\c2ccc([N+](=O)[O-])c(O)c2)SC(=S)N1NS(=O)(=O)c1ccccc1,-,-,NS5B polymerase,IC50,Hepatitis C virus,-,-,≤30 µM
COc1ccc(NS(=O)(=O)c2ccc(N)cc2)nn1,-,-,DHPS,IC50,Pneumocystis carinii,-,-,<0.05 µM
Cc1c(Sc2ccccc2)n(COCCO)c(=O)[nH]c1=O,-,-,Reverse transcriptase,fold resistance,HIV,-,RT-K103N Y188L,>10
CCCCCCCC/C=C/CCCCCCCC(=O)Nc1nnc(NCCN(C)C)s1,-,-,Polymerase,IC50,Human cytomegalovirus,-,-,<25 µM
O=C(CCN1C(=O)/C(=C/c2ccc(Cl)cc2)SC1=S)NNC(=O)c1cccc2ccccc12,-,-,Pantothenate synthetase,IC50,Mycobacterium tuberculosis,absorbance,-,1.17 µM
Cc1ccnc(NS(=O)(=O)c2ccc(N)cc2)n1,-,-,DHPS,IC50,Pneumocystis carinii,-,-,0.078 µM
O=C1N=C2SC([N+](=O)[O-])=CN2C2=NC(=S)NC(c3ccc(Cl)cc3)C12,-,100 µM,CysK1,inhibition,Mycobacterium tuberculosis,absorbance,-,0%
O=C(Cc1ccc(F)c(C(F)(F)F)c1)Nc1ccsc1-c1nc(C(=O)O)c(O)c(=O)[nH]1,-,-,HCV polymerase,IC50,Hepatitis C virus,-,-,<25 µM
O=C1N=C2C(C(=O)N=C3SC([N+](=O)[O-])=CN32)C(c2c(Cl)cccc2Cl)N1,-,100 µM,CysK1,inhibition,Mycobacterium tuberculosis,absorbance,-,42.2%
CCCCCCCC/C=C/CCCCCCCC(=O)Nc1nnc(NCCCNC2CCCCC2)s1,-,-,Polymerase,IC50,Human cytomegalovirus,-,-,<25 µM
O=C(Nc1cccc(-c2nc(C(=O)O)c(O)c(=O)[nH]2)c1)Nc1ccc(F)c([N+](=O)[O-])c1,-,-,HCV polymerase,IC50,Hepatitis C virus,-,-,<100 µM
O=C1N=C2C(C(=O)N=C3SC([N+](=O)[O-])=CN32)C(c2ccccc2O)N1,-,100 µM,CysK1,inhibition,Mycobacterium tuberculosis,absorbance,-,0%
CN(CC(C)(CCN1CCC(N(CCO)C(=O)OCc2ccc([N+](=O)[O-])cc2)CC1)c1ccsc1)S(=O)(=O)c1ccccc1,-,-,CCR5,fold resistance,-,radiometric,CCR5-D276A,2
O=C(Nc1cccc(-c2nc(C(=O)O)c(O)c(=O)[nH]2)c1)Nc1ccccc1C(F)(F)F,-,-,HCV polymerase,IC50,Hepatitis C virus,-,-,<100 µM
O=C1/C(=C/c2ccc(Br)c(Br)c2)SC(=S)N1NS(=O)(=O)c1ccc(Br)cc1,-,-,NS5B polymerase,IC50,Hepatitis C virus,-,-,≤30 µM
COc1cc(C)c(S(=O)(=O)Nc2cc(-c3ccccc3)sc2C(=O)O)c(C)c1C,-,-,NS3 ATPase,IC50,Hepatitis C virus,-,-,<5 µM
CN(Cc1ccc2nc(N)nc(N)c2n1)c1ccccc1Cl,-,-,Dihydrofolate reductase,IC50,Cryptosporidium parvum,-,-,0.65 µM
COc1cc(OC)c(C=C2SC(=O)N(CC(=O)N3CCN(c4ccc(Cl)cc4)CC3)C2=O)c(OC)c1,-,-,Falcipain-2,IC50,Plasmodium falciparum,fluorescence,-,11.23 µM
O=C1/C(=C\c2ccccc2F)SC(=S)N1NS(=O)(=O)c1ccccc1,-,-,NS5B polymerase,IC50,Hepatitis C virus,-,-,≤30 µM
O=C(/C=C/c1ccccc1Cl)Nc1nnc(NCc2ccco2)s1,-,-,Polymerase,IC50,Human cytomegalovirus,-,-,>25 µM
O=C(O)C(Cl)(Br)P(=O)(O)O,-,-,DNA polymerase,IC50,Herpes simplex virus 2,-,-,>100 µM
CC[C@H]1C(=O)Nc2ccc(F)cc2N1C(=O)OC(C)C,-,-,Reverse transcriptase,IC50,HIV,nucleotide incorporation / radiometric,RT-P95A,0.012 µM
CN(Cc1cnc2nc(N)nc(N)c2n1)c1ccc(C(=O)N2CCOCC2)cc1,-,-,Dihydrofolate reductase,IC50,Cryptosporidium parvum,-,-,>10 µM
O=C(O)C(F)(Br)P(=O)(O)O,-,-,DNA polymerase,IC50,Epstein-Barr virus,-,-,94 µM
CCC(CC)Nc1cc(C(=O)O)ccc1N1C(=O)CCC1(CO)CN=[N+]=[N-],Subtype N1,-,Neuraminidase,IC50,Influenza A virus,-,-,268 µM
O=C(O)C(F)(F)P(=O)(O)O,-,-,DNA polymerase,IC50,Epstein-Barr virus,-,-,65 µM
Nc1nc(N)c2c(n1)-c1ccsc1CC2,-,-,Dihydrofolate reductase,IC50,Cryptosporidium parvum,-,-,>10 µM
Nc1ccc(S(=O)(=O)Nc2ccc(Cl)nn2)cc1,-,-,DHPS,Ki,Pneumocystis carinii,-,-,0.01 µM
O=C(O)C(Cl)P(=O)(O)O,-,100 µM,DNA polymerase,inhibition,Herpes simplex virus 2,-,-,96%
O=c1[nH]cc(Cl)c(=O)[nH]1,RH,2000 µM,Uracil phosphoribosyltransferase,inhibition,Toxoplasma gondii,-,-,<5%
O=C(O)C(F)P(=O)(O)O,-,100 µM,DNA polymerase,inhibition,Herpes simplex virus 2,-,-,100%
NC(Cc1ccccc1)B(O)O,-,0.001 µM,Aminopeptidase,inhibition,Cryptosporidium parvum,-,-,79%
O=c1[nH]c(=O)n([C@@H]2O[C@H](CO)[C@@H](O)[C@@H]2O)cc1/C=C/Cl,-,-,Thymidine kinase,Ki,Varicella zoster virus,-,-,0.42 µM
O=C(Nc1nnc(NC2CCCc3ccccc32)s1)c1c(Cl)cccc1Cl,-,-,Polymerase,IC50,Human cytomegalovirus,-,-,<25 µM
CC(N)CB(O)O,-,0.001 µM,Aminopeptidase,inhibition,Cryptosporidium parvum,-,-,88%
O=c1[nH]cc(I)c(=O)[nH]1,RH,-,Uracil phosphoribosyltransferase,IC50,Toxoplasma gondii,-,-,>2000 µM
O=C(CN1C(=O)SC(=Cc2cc(C(F)(F)F)ccc2C(F)(F)F)C1=O)N1CCN(c2ccccc2)CC1,-,-,Falcipain-2,IC50,Plasmodium falciparum,fluorescence,-,35.28 µM
O=C1/C(=C\c2ccc3c(c2)OC(F)(F)O3)SC(=S)N1NS(=O)(=O)c1ccccc1,-,-,NS5B polymerase,IC50,Hepatitis C virus,-,-,≤30 µM
N=C(N)N1CCC(N(C(=O)c2ccc(Cl)cc2Cl)c2cc(-c3ccccc3)sc2C(=O)O)CC1,-,-,NS3 ATPase,IC50,Hepatitis C virus,-,-,<5 µM
O=C(/C=C/c1ccccc1)Nc1nnc(NCc2cccnc2)s1,-,-,Polymerase,IC50,Human cytomegalovirus,-,-,>25 µM
O=C(CN1C(=O)SC(=Cc2cccc(F)c2)C1=O)N1CCN(c2ccccc2)CC1,-,-,Falcipain-2,IC50,Plasmodium falciparum,fluorescence,-,33.25 µM
CC[C@@H](CO)NCCN[C@@H](CC)CO,-,-,Pantothenate synthetase,IC50,Mycobacterium tuberculosis,absorbance,-,>25 µM
CN1C(=O)/C(=C\c2ccc(Cl)cc2)SC1=S,-,-,NS5B polymerase,IC50,Hepatitis C virus,-,-,>30 µM
O=C(Nc1nnc(NCCc2ccccc2)s1)c1ccc(S(=O)(=O)F)cc1,-,-,Polymerase,IC50,Human cytomegalovirus,-,-,>25 µM
O=C1N=C2C(C(=O)N=C3SC([N+](=O)[O-])=CN32)C(c2ccc([N+](=O)[O-])cc2)N1,-,100 µM,CysK1,inhibition,Mycobacterium tuberculosis,absorbance,-,45.3%

5 of the rows above, restated:

COc1cc(C)c(S(=O)(=O)Nc2cc(-c3ccccc3)sc2C(=O)O)c(C)c1C ; protein: NS3 ATPase ; measure: IC50 ; agent: Hepatitis C virus ; value: <5 µM
COc1cc(CN(C)c2ccc3nc(N)nc(N)c3c2Cl)cc(OC)c1OC ; protein: Dihydrofolate reductase ; measure: IC50 ; agent: Cryptosporidium parvum ; value: 0.78 µM
O=C(O)C(Cl)P(=O)(O)O ; dose: 100 µM ; protein: DNA polymerase ; measure: inhibition ; agent: Herpes simplex virus 2 ; value: 96%
O=C(CCN1C(=O)/C(=C/c2ccc3c(c2)OCO3)SC1=S)NNC(=O)c1ccccc1 ; protein: Pantothenate synthetase ; measure: IC50 ; agent: Mycobacterium tuberculosis ; method: absorbance ; value: 5.86 µM
CC1CCC(C(=O)N(c2cc(-c3cccc([N+](=O)[O-])c3)sc2C(=O)O)C(C)C)CC1 ; protein: NS3 ATPase ; measure: IC50 ; agent: Hepatitis C virus ; value: <5 µM

Blank or dashed fields: not listed here. ICn: concentration for n% inhibition. Neighbouring rows are from separate reports. Inhibition is in % at the dose shown (toxicity tests: loss of growth or viability).